Data as given in PubChem BioAssay AID624099 (ICCB-Longwood, 2012)
Here is an unselected part of about 21,000 reagents tested. 497 of them (2.4%) count as active. 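Higher z means weaker E2 silencing; only reporter increases were scored, and knock-downs that hurt cell survival may mask genuine repressor factors.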 A number with no mark means an inactive call.

- Purpose: 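Host factors E2 relies on to silence an HPV18 LCR reporter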 (primary screen)
- Cell system: human C33A cervical carcinoma cells (HPV-negative) stably expressing BPV1 E2 and an HPV18 LCR luciferase reporter
- Reagent: siRNA pool against human genes, 40 nM
- Time to read-out: 72 h
- Read-out: 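Per-well luciferase luminescence, z-scored on each plate against the plate mean and SD with control wells left out, then averaged across three replicate plates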
- Direction: mean z-score and z-score: higher = stronger reporter signal, weaker E2 silencing
- Call rule: 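Hit if mean z-score reaches 2 and two or more of three replicate z-scores also reach 2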

ACRBP (acrosin binding protein)
- mean z-score: -0.65
- z-score, replicate A: -0.54
- z-score, replicate B: -0.63
- z-score, replicate C: -0.77

CLIP3 (CAP-Gly domain containing linker protein 3)
- mean z-score: 0.17
- z-score, replicate A: 0.26
- z-score, replicate B: 0.15
- z-score, replicate C: 0.11

SMIM24 (small integral membrane protein 24)
- mean z-score: -0.36
- z-score, replicate A: -0.17
- z-score, replicate B: -0.48
- z-score, replicate C: -0.44

HPSE (heparanase)
- mean z-score: -1
- z-score, replicate A: -1.03
- z-score, replicate B: -0.94
- z-score, replicate C: -1.01

LINC01697 (long independently transcribed non-coding RNA 1697)
- mean z-score: 0.18
- z-score, replicate A: 0.28
- z-score, replicate B: -0.04
- z-score, replicate C: 0.3

ECT2L (epithelial cell transforming 2 like)
- mean z-score: -0.09
- z-score, replicate A: -0.04
- z-score, replicate B: -0.12
- z-score, replicate C: -0.11

PRICKLE2 (prickle planar cell polarity protein 2)
- mean z-score: 1.63
- z-score, replicate A: 1.28
- z-score, replicate B: 1.79
- z-score, replicate C: 1.83

MKLN1 (muskelin 1)
- mean z-score: 0.05
- z-score, replicate A: 0.08
- z-score, replicate B: -0.04
- z-score, replicate C: 0.13

UGDH (UDP-glucose 6-dehydrogenase)
- mean z-score: 0.34
- z-score, replicate A: 0.41
- z-score, replicate B: 0.53
- z-score, replicate C: 0.08

LINC00955 (long independently transcribed non-coding RNA 955)
- mean z-score: -0.35
- z-score, replicate A: -0.52
- z-score, replicate B: -0.21
- z-score, replicate C: -0.33

ZBED2 (zinc finger BED-type containing 2)
- mean z-score: -0.62
- z-score, replicate A: -0.76
- z-score, replicate B: -0.78
- z-score, replicate C: -0.32

LDHA (lactate dehydrogenase A)
- mean z-score: 0.28
- z-score, replicate A: 0.07
- z-score, replicate B: 0.54
- z-score, replicate C: 0.22

SIAH1 (siah E3 ubiquitin protein ligase 1)
- mean z-score: -0.7
- z-score, replicate A: -0.79
- z-score, replicate B: -0.77
- z-score, replicate C: -0.54

PEX6 (peroxisomal biogenesis factor 6)
- mean z-score: -0.28
- z-score, replicate A: -0.01
- z-score, replicate B: -0.38
- z-score, replicate C: -0.44

2 entries from above, reduced to “z-score, replicate B”:
LINC00955 (long independently transcribed non-coding RNA 955) = -0.21
ZBED2 (zinc finger BED-type containing 2) = -0.78
